Compound potency records, mixed from different reports. Data source: NIAID ChemDB in PubChem.

All rows: enzyme or target tests

An empty or dashed field is not shown. Fold resistance has wild type as its base. Conditions beyond the fields shown may differ between rows. ICn is the concentration giving n% inhibition. Inhibition is in % at the dose shown (toxicity tests: loss of growth or viability). Two numbers with a dash give a range or band.

smiles,protein,method,mutations,organism,read-out,strain or isolate,dose,result
COc1cccc(COc2cccc(-c3cnc4c(C(=O)O)cnn4c3C3CCCCC3)c2)c1,RNA-dependent RNA polymerase,,,Hepatitis C virus,IC50,,,1–10 µM
CC1CCC(C(=O)N(c2cc(-c3ccc(Cl)cc3)sc2C(=O)O)C(C)C)CC1,NS3 ATPase,,,Hepatitis C virus,IC50,,,<5 µM
Fc1ccc(-c2cncc(N3CCN(c4cccc(Cl)c4)CC3)n2)cc1Cl,UL97 kinase,,,Cytomegalovirus,IC50,,,<100 µM
CS(=O)(=O)c1ccc(-c2ccc(-c3cnc4c(-c5nn[nH]n5)cnn4c3C3CCCCC3)cc2)cc1,RNA-dependent RNA polymerase,,,Hepatitis C virus,IC50,,,1–10 µM
FC(F)(F)c1ccc(-c2cncc(N3CCN(c4cccc(Cl)c4)CC3)n2)cc1,UL97 kinase,,,Cytomegalovirus,inhibition,,10 µM,>15%
Cc1cc(-c2cnc3c(C(=O)O)cnn3c2C2CCCCC2)ccc1F,RNA-dependent RNA polymerase,,,Hepatitis C virus,IC50,,,1–10 µM
COc1cccc(CC2CCc3nc(N)nc(N)c3C2)c1,Dihydrofolate reductase,,,Cryptosporidium parvum,IC50,TYPE 2,,1.2 µM
NC(=O)c1ccc(-c2cncc(N3CCN(C(=O)c4ccco4)CC3)n2)cc1,UL97 kinase,,,Cytomegalovirus,IC50,,,<1 µM
Cc1ccccc1S(=O)(=O)Nc1cc(-c2cc3ccccc3s2)sc1C(=O)O,NS3 ATPase,,,Hepatitis C virus,IC50,,,<5 µM
Nc1nc(N)c2c(ccc3cc(Br)ccc32)n1,Dihydrofolate reductase,,,Cryptosporidium parvum,IC50,TYPE 1,,>10 µM
COc1ccc(N2CCN(c3cncc(-c4cccc(OC)c4)n3)CC2)cc1,UL97 kinase,,,Cytomegalovirus,IC50,,,<100 µM
O=C(O)CCN1C(=O)C(=Cc2ccc(-c3cc4ccccc4o3)o2)SC1=S,NS5 polymerase,,,Bovine viral diarrhea virus,IC50,,,≤1 µM
CSc1ccc(-c2cncc(N3CCN(c4ccc(C)c(C)c4)CC3)n2)cc1,UL97 kinase,,,Cytomegalovirus,inhibition,,1 µM,<50%
Nc1nc(N)c2c(n1)CCC(Cc1ccc(OC(F)(F)F)cc1)C2,Dihydrofolate reductase,,,Cryptosporidium parvum,IC50,TYPE 1,,0.53 µM
O=C(N[C@@H](Cc1ccccc1)C(=O)O)c1cnn2c(C3CCCCC3)c(-c3ccc(F)cc3)cnc12,RNA-dependent RNA polymerase,,,Hepatitis C virus,IC50,,,1–10 µM
CN(Cc1ccc2nc(N)nc(N)c2n1)c1ccc(C(=O)NC23CC4CC(CC(C4)C2)C3)cc1,Dihydrofolate reductase,,,Cryptosporidium parvum,IC50,TYPE 2,,1.8 µM
O=C(O)c1sc(-c2ccccc2)cc1NS(=O)(=O)c1ccc(F)c(F)c1F,NS3 ATPase,,,Hepatitis C virus,IC50,,,5–20 µM
CCCCc1ccc(Cc2nc3nc(N)nc(N)c3nc2Cc2cccc(CCCC)c2)cc1,Dihydrofolate reductase,,,Cryptosporidium parvum,IC50,TYPE 2,,>10 µM
CS(=O)(=O)Nc1cn2ccn(Cc3cccc(Cl)c3)c(=O)c2c(O)c1=O,Integrase,ELISA,,HIV-1,IC50,,,<0.01 µM
Fc1cccc(-c2cncc(N3CCN(c4ccccc4F)CC3)n2)c1,UL97 kinase,,,Cytomegalovirus,inhibition,,10 µM,>15%
COc1cccc2c1CCc1nc(N)nc(N)c1-2,Dihydrofolate reductase,,,Cryptosporidium parvum,IC50,TYPE 1,,0.72 µM
O=C(O)c1ccc(-c2ccc(C=C3SC(=S)N(c4ccc(C(=O)O)cc4)C3=O)o2)cc1,NS5 polymerase,,,Bovine viral diarrhea virus,IC50,,,≤1 µM
Cc1ccc(C(=O)N(C)c2cc(-c3cccc(N)c3)sc2C(=O)O)cc1,NS3 ATPase,,,Hepatitis C virus,IC50,,,5–20 µM
O=C(O)CN1C(=O)C(=Cc2ccc(-c3ccc(Cl)c(Cl)c3)o2)SC1=S,NS5 polymerase,,,Bovine viral diarrhea virus,IC50,,,≤1 µM
CC(C)SCc1cc(=O)c(O)c2n1CCN(Cc1ccc(Cl)c(Cl)c1)C2=O,Integrase,ELISA,,HIV-1,IC50,,,0.01–0.1 µM
O=C(O)CCN1C(=O)C(=Cc2ccc(-c3cc4ccccc4s3)o2)SC1=S,NS5 polymerase,,,Bovine viral diarrhea virus,IC50,,,≤1 µM
Nc1ccn([C@@H]2CS[C@H](COP(=O)(O)OP(=O)(O)OP(=O)(O)O)O2)c(=O)n1,Reverse transcriptase,radiometric,RT-L74V K103N,HIV,fold resistance,,,1.5
O=C(O)c1cc2nc(-c3ccccc3Cl)cc(-c3ccc(-c4ccccc4)cc3)n2n1,RNA-dependent RNA polymerase,,,Hepatitis C virus,IC50,,,1–10 µM
Cc1ccc(-c2cncc(N3CCN(c4cccc(C(F)(F)F)c4)CC3)n2)cc1,UL97 kinase,,,Cytomegalovirus,IC50,,,<100 µM
O=C(O)c1cc2nccc(-c3cccc(-c4ccccc4Oc4ccccc4)c3)n2n1,RNA-dependent RNA polymerase,,,Hepatitis C virus,IC50,,,>10 µM
O=c1c(S(=O)(=O)c2ccccc2)cn2ccn(Cc3cccc(Cl)c3)c(=O)c2c1O,Integrase,ELISA,,HIV-1,IC50,,,0.01–0.1 µM
O=C(O)c1cccc(COc2ccc(-c3cnc4c(-c5nn[nH]n5)cnn4c3C3CCCCC3)cc2)c1,RNA-dependent RNA polymerase,,,Hepatitis C virus,IC50,,,1–10 µM
O=c1c(-c2ncccn2)cn2ccn(Cc3cccc(Cl)c3)c(=O)c2c1O,Integrase,ELISA,,HIV-1,IC50,,,0.01–0.1 µM
O=C1NC(=S)S/C1=C/c1ccc(-c2cc(C(F)(F)F)ccc2Cl)o1,NS5 polymerase,,,Bovine viral diarrhea virus,IC50,,,≤1 µM

A second listing of 4 rows from above:

smiles,protein,method,mutations,organism,read-out,strain or isolate,dose,result
Nc1nc(N)c2c(ccc3cc(Br)ccc32)n1,Dihydrofolate reductase,,,Cryptosporidium parvum,IC50,TYPE 1,,>10 µM
CC1CCC(C(=O)N(c2cc(-c3ccc(Cl)cc3)sc2C(=O)O)C(C)C)CC1,NS3 ATPase,,,Hepatitis C virus,IC50,,,<5 µM
O=C(O)c1cc2nccc(-c3cccc(-c4ccccc4Oc4ccccc4)c3)n2n1,RNA-dependent RNA polymerase,,,Hepatitis C virus,IC50,,,>10 µM
O=C(O)c1sc(-c2ccccc2)cc1NS(=O)(=O)c1ccc(F)c(F)c1F,NS3 ATPase,,,Hepatitis C virus,IC50,,,5–20 µM